Measured values published in patent US20230381142A1, “ANTILEISHMANIAL COMPOUNDS, COMPOSITIONS AND USE THEREOF” (TRUSTEES OF BOSTON UNIVERSITY, priority 2022, published 2023).

These compounds were tested on L. donovani intracellular amastigotes infecting THP-1 macrophages (assay: GSK intramacrophage L. donovani assay (LD AMMAC, inMac; Assay Conditions C)). Conditions: (LD MAC EC50)/(LD AMMAC EC50).
Assay type: cell-based, Leishmania donovani
Method: Assay Conditions C: The intramacrophage Leishmania donovani activity assay was performed as described in Antimicrob Agents Chemother (2013) 57(7):2913-22.
The intramacrophage Leishmania donovani activity assay (LD AMMAC) at GlaxoSmithKline was performed as described.
Given the literature precedents described above and the apparent narrow tolerance for R^3 substitutions observed in the primary screen compounds, a thorough and methodical assessment was undertaken of tolerated groups at the three points of diversity (R^1/R^2/R^3) for the core. At this stage of the project, all analogues were assessed using a battery of assays performed in-house at GlaxoSmithKline. For antileishmanial activity, GSK's inMac assay was utilized. This assay provides two readouts of compound potency: average number of intracellular amastigotes per infected cell (AMMAC) EC50, percentage of infected cells per well (INFCELL) EC50, as well as a toxicity output derived from the number of host cells (MAC EC50). In addition, compounds were assessed for toxicity against HepG2 cells (HEPG2 EC50). Here, AMMAC EC50 values were focused on for relative potency assessments. […] It should be noted that for all compounds assessed in this project, the measured toxicity against THP-1 macrophages either equaled or exceeded that of HepG2 hepatocytes, therefore the MAC SI is used here as the more conservative estimate of therapeutic index.

SMILES | SI MAC
CC(C)Cc1n[nH]c2c1C(c1ccc(F)cc1)N(CC1CCN(C)C1)C2=O (centres unmarked) [Compound 40] | >1.0
COc1ccc(N2C(=O)c3[nH]nc(CC(C)C)c3C2c2cccc(F)c2)cc1 (centres unmarked) [Compound 58] | 2.5
CC(C)Cc1n[nH]c2c1C(c1ccc(F)cc1)N(c1ccc(O)cc1)C2=O (centres unmarked) [Compound 18] | 8.0
COc1ccc(N2C(=O)c3[nH]nc(CC(C)C)c3C2c2cc(F)nc(F)c2)cc1 (centres unmarked) [Compound S14] | 1.0
CC(C)Cc1n[nH]c2c1C(c1ccc(F)cc1)N(c1ccc(Br)cc1)C2=O (centres unmarked) [Compound 24, 5-(4-bromophenyl)-4-(4-fluorophenyl)-3-isobutyl-4,5-dihydropyrrolo[3,4-c]pyrazol-6(1H)-one] | 12.2
COc1ccc(N2C(=O)c3[nH]nc(CC(C)C)c3C2c2ccnnc2)cc1 (centres unmarked) [Compound S9] | 1.0
COC(=O)c1ccc(C2c3c(CC(C)C)n[nH]c3C(=O)N2c2ccc(OC)cc2)cc1 (centres unmarked) [Compound 51] | 1.6
COc1ccc(N2C(=O)c3[nH]nc(CC(C)C)c3C2C2CCCCC2)cc1 (centres unmarked) [Compound 52] | 3.2
CC(C)Cc1n[nH]c2c1C(c1ccc(F)cc1)N(c1ccc(OC(F)(F)F)cc1)C2=O (centres unmarked) [Compound 20] | 2.5
COc1ccc(N2C(=O)c3[nH]nc(CC(C)C)c3C2c2c(Cl)cccc2Cl)cc1 (centres unmarked) [Compound 66] | 2.5
COCCN1C(=O)c2[nH]nc(CC(C)C)c2C1c1ccc(F)cc1 (centres unmarked) [Compound 41] | >1.0
COc1ccc(N2C(=O)c3[nH]nc(CCc4ccccc4)c3C2c2ccc(F)cc2)cc1 (centres unmarked) [Compound 15] | 4.0
COc1ccc(N2C(=O)c3[nH]nc(CC(C)C)c3C2c2ccc(OC)nc2)cc1 (centres unmarked) [Compound S12] | 1.0
C=CCCc1n[nH]c2c1C(c1ccc(F)cc1)N(c1ccc(OC)cc1)C2=O (centres unmarked) [Compound 12] | 2.0
COc1ccc(N2C(=O)c3[nH]nc(CC(C)C)c3C2c2ccncn2)cc1 (centres unmarked) [Compound S8] | 1.0
COc1ccc(N2C(=O)c3[nH]nc(CC(C)C)c3C2c2ccccc2OC)cc1 (centres unmarked) [Compound 57, 3-isobutyl-4-(2-methoxyphenyl)-5-(4-methoxyphenyl)-4,5-dihydropyrrolo[3,4-c]pyrazol-6(1H)-one] | 50.2
COc1ccc(N2C(=O)c3[nH]nc(CC(C)C)c3C2c2ccc(F)cn2)cc1 (centres unmarked) [Compound S10] | >5.0
COc1ccc(N2C(=O)c3[nH]nc(-c4ccc(CC(C)C)cc4)c3C2c2ccc(F)cc2)cc1 (centres unmarked) [Compound 17] | 2.0
COc1ccc(N2C(=O)c3[nH]nc(CC(C)C)c3C2c2ccc(F)c(F)c2)cc1 (centres unmarked) [Compound 65, 4-(3,4-difluorophenyl)-3-isobutyl-5-(4-methoxyphenyl)-4,5-dihydropyrrolo[3,4-c]pyrazol-6(1H)-one] | 5.0
COc1ccccc1N1C(=O)c2[nH]nc(CC(C)C)c2C1c1ccc(F)cc1 (centres unmarked) [Compound 29] | >2.5
COC1CCC(N2C(=O)c3[nH]nc(CC(C)C)c3C2c2ccc(F)cc2)CC1 (centres unmarked) [Compound 36] | >2.0
COc1ccc(N2C(=O)c3[nH]nc(CC(C)C)c3C2c2ccc(C(F)(F)F)cc2)cc1 (centres unmarked) [Compound 49] | 2.0
CC(C)Cc1n[nH]c2c1C(c1ccc(F)cc1)N(C1CCOCC1)C2=O (centres unmarked) [Compound 38] | >1.6

Same assay, conditions: THP-1 CC50 / L. donovani EC50 (THP-1)

SMILES | SI Host cell potency/L. donovani potency
CC(C)Cc1n[nH]c2c1C(c1ccc(F)cc1)N(CC(C)(CO)CO)C2=O (centres unmarked) [CMLD011038] | 1.0
COc1cc(N2C(=O)c3[nH]nc(CC(C)C)c3C2c2ccccc2Br)cc(OC)c1OC (centres unmarked) [CMLD011077] | 1.0
COc1ccc(N2C(=O)c3[nH]nc(CC(C)C)c3[C@H]2c2cccc(C(F)(F)F)c2)cn1 [CMLD011076] | 1.6
COC(=O)c1ccc(N2C(=O)c3[nH]nc(CC(C)C)c3C2c2cccc(C(F)(F)F)c2)cc1 (centres unmarked) [CMLD011080] | 4.0
CCCn1nc2c(c1CC(C)C)C(c1ccc(F)cc1)N(c1ccc(OC)cc1)C2=O (centres unmarked) [CMLD010990] | 3.2

Same assay, conditions: rows whose L. donovani EC50 is in THP-1 cells (c)

SMILES | SI Host cell potency/L. donovani potency
COc1cccc(N2C(=O)c3[nH]nc(CC(C)C)c3C2c2cccc(C(F)(F)F)c2)c1 (centres unmarked) [CMLD011140] | 4.0
COc1ccc(N2C(=O)c3[nH]nc(CC(C)C)c3C2c2ccc(F)c(C)n2)cc1 (centres unmarked) [CMLD011120] | >4.0
CC(C)Cc1n[nH]c2c1C(c1ccc(F)cc1)N(c1ccc(F)cc1)C2=O (centres unmarked) [CMLD011113] | 4.0
COCn1nc2c(c1CC(C)C)C(c1ccc(F)cc1)N(c1ccc(OC)cc1)C2=O (centres unmarked) [BUCMD00814] | >4
COc1ccc(N2C(=O)c3[nH]nc(CC(C)C)c3C2c2ccccc2Br)cc1 (centres unmarked) [CMLD010894] | 50.2
COc1ccc(N2C(=O)c3[nH]nc(CCC=C(C)C)c3C2c2ccc(F)cc2)cc1 (centres unmarked) [CMLD010981] | 3.2
CC(C)Cc1n[nH]c2c1C(c1ccccc1Cl)N(c1ccc(-n3ccnc3)cc1)C2=O (centres unmarked) [CMLD010998] | 7.9
COc1ccc(N2C(=O)c3[nH]nc(CC4CCCCC4)c3C2c2ccc(F)cc2)cc1 (centres unmarked) [BUCMD00812] | 6.3
COc1ccc(N2C(=O)c3[nH]nc(CC(C)C)c3[C@H]2c2ccc(F)cc2C)cc1 [CMLD010950] | 5.0
COc1ccc(CN2C(=O)c3[nH]nc(CC(C)C)c3C2c2ccc(F)cc2)cc1 (centres unmarked) [CMLD011026] | >2.5
CC(C)Cc1n[nH]c2c1C(c1ccc(F)cc1)N(c1ccc3c(c1)OCCO3)C2=O (centres unmarked) [CMLD011101] | 7.9
CC(C)Cc1n[nH]c2c1C(c1ccc(F)cc1)N(CC1CCN(C)C1)C2=O (centres unmarked) [CMLD011129] | >1.0
CC(C)Cc1n[nH]c2c1C(c1ccc(F)cc1)N(C1CCOCC1)C2=O (centres unmarked) [CMLD011030] | >1.6
CCC(C)(COC(C)=O)CN1C(=O)c2[nH]nc(CC(C)C)c2C1c1ccc(F)cc1 (centres unmarked) [CMLD011035] | 5.0
CC(C)Cc1n[nH]c2c1C(c1ccsc1)N(c1ccc(C(C)(C)C)cc1)C2=O (centres unmarked) [CMLD011135] | >12.9
CC(C)Cc1n[nH]c2c1C(c1ccc(F)cc1)N(c1ccc3ncnn3c1)C2=O (centres unmarked) [CMLD010888] | >10
COc1ccc(N2C(=O)c3[nH]nc(CCc4ccccc4)c3C2c2ccc(F)cc2)cc1 (centres unmarked) [CMLD010849] | 4.0
CCCn1nc(CC(C)C)c2c1C(=O)N(c1ccc(OC)cc1)C2c1ccc(F)cc1 (centres unmarked) [CMLD010982] | 5.0
COCCN1C(=O)c2[nH]nc(CC(C)C)c2C1c1ccc(F)cc1 (centres unmarked) [CMLD011117] | >1.0

SMILES | SI Host cell potency/L. donovani potency
CCc1ccc(N2C(=O)c3[nH]nc(CC(C)C)c3C2c2ccc(F)cc2)cc1 (centres unmarked) [CMLD010899] | 50
CCn1nc2c(c1CC(C)C)C(c1ccc(F)cc1)N(c1ccc(OC)cc1)C2=O (centres unmarked) [BUCMD00810] | >2.5
CC(C)Cc1n[nH]c2c1C(c1cccc(C(F)(F)F)c1)N(c1ccc(Br)cc1)C2=O (centres unmarked) [CMLD011081] | 1.0
COc1ccc(N2C(=O)c3[nH]nc(CC(C)C)c3C2c2ccc(OC)nc2)cc1 (centres unmarked) [CMLD011027] | 1.0
COc1ccc(N2C(=O)c3[nH]nc(CC(C)C)c3C2c2nccs2)cc1 (centres unmarked) [CMLD011075] | >2.5
CCn1nc(CC(C)C)c2c1C(=O)N(c1ccc(OC)cc1)C2c1ccc(F)cc1 (centres unmarked) [BUCMD00809] | 10.0
COc1ccc(N2C(=O)c3[nH]nc(CC(C)C)c3C2c2c(Cl)cccc2Cl)cn1 (centres unmarked) [CMLD011569] | 4.0
CC(C)Cc1n[nH]c2c1C(c1ccc(F)cc1)N(c1ccc3c(c1)OC(F)(F)O3)C2=O (centres unmarked) [CMLD011105] | 5.0
COc1ccc(N2C(=O)c3[nH]nc(CC(C)C)c3C2c2ccc(F)cc2OC)cc1F (centres unmarked) [CMLD011573] | 15.8
COc1ccc(N2C(=O)c3[nH]nc(CC(C)C)c3C2c2ccc(F)c(F)c2)cc1 (centres unmarked) [CMLD013640] | 5.0
C=CCn1nc(CC(C)C)c2c1C(=O)N(c1ccc(OC)cc1)C2c1ccc(F)cc1 (centres unmarked) [CMLD010985] | 12.6
CC(C)Cc1n[nH]c2c1[C@@H](c1ccc(F)cc1)N([C@H]1CC[C@H](N(C)C)CC1)C2=O [CMLD011124] | >2.0
COc1ccc(N2C(=O)c3[nH]nc(CC(C)C)c3C2c2ccc(F)cc2C)cc1 (centres unmarked) [BUCMD00800] | 50.1
COc1cccc(N2C(=O)c3[nH]nc(CC(C)C)c3C2c2ccsc2)c1 (centres unmarked) [CMLD010880] | 2.0
COc1ccc(N2C(=O)c3[nH]nc(CC(C)C)c3C2c2ccnnc2)cc1 (centres unmarked) [BUCMD00801] | 1.0
COc1ccc(N2C(=O)c3[nH]nc(CC(C)C)c3C2c2cccc(C(F)(F)F)c2)c(OC)c1 (centres unmarked) [CMLD011115] | 1.6
COc1ccc(N2C(=O)c3[nH]nc(CC(C)C)c3C2c2ccc(C(F)(F)F)cc2)cc1 (centres unmarked) [CMLD011121] | 2.0
CC(C)Cc1n[nH]c2c1C(c1ccc(F)cc1)N(c1ccc3c(c1)OCO3)C2=O (centres unmarked) [CMLD010901] | 41.8
